Experimental data from the CheMixHub viscosity set.

CCn1cc[n+](C)c1.O=S(=O)(F)[N-]S(=O)(=O)F
viscosity [mPa·s]
Conditions | 298 K | 303 K | 308 K | 313 K | 318 K | 323 K
100 kPa | 19.2 | – | 14.4 | – | 11.1 | –
101.3 kPa | 19.2 | 16.7 | 14.6 | 12.9 | 11.4 | 10.2
